A mixed list of measured activities; the numbers were collected in NIAID ChemDB.

Common to all: tests in culture; agent: Hepatitis C virus; measure: EC50

ECn is the concentration giving n% inhibition of infection, replication or growth.

compound | strain | cell line | changes | read by | conditions | result
Cc1cc(Cl)c(OCCCCCOc2cccc(NC(N)=S)c2)c(Cl)c1 |  | Ava5-EG(delta4AB)SEAP |  | reporter gene / fluorescence |  | 0.001–1 µM
CC(=O)N1c2cccc(O)c2NC2=C(C(=O)CC(C)(C)C2)C1c1ccc(-c2ccccc2)cc1 | 1b |  |  | luciferase / reporter gene / replicon |  | 19.31 µM
CCCCCOc1ccc(N(C(N)=O)c2nc(-c3cccnc3)cs2)cc1F |  |  |  |  |  | <1 µM
CCN(CC)[C@@H](C(=O)N1CCC[C@@H]1c1ncc(-c2cnc(-c3ccc(-c4nc([C@H]5CCCN5C(=O)[C@@H](c5ccccc5)N(C)C)[nH]c4C(F)(F)F)cc3)nc2)[nH]1)c1ccccc1 | 1b |  |  |  |  | 0.00001–0.000999 µM
CC1(C)CC[C@@]2(C(=O)NCc3cn(CCCCCn4cc(CNC(=O)[C@]56CCC(C)(C)CC5C5=CCC7[C@@]8(C)CC[C@H](O)C(C)(C)C8CC[C@@]7(C)[C@]5(C)C[C@H]6O)nn4)nn3)C(C1)C1=CCC3[C@@]4(C)CC[C@H](O)C(C)(C)C4CC[C@@]3(C)[C@]1(C)C[C@H]2O |  | Huh7 |  | luciferase / entry |  | 0.13 µM
NC(=S)Nc1cccc(NCCCc2ccccc2)c1 |  | Ava5-EG(delta4AB)SEAP |  | reporter gene / fluorescence |  | 0.001–1 µM
CCCCCOc1ccc(N(C=O)c2nc(-c3cccnc3)cs2)cc1C(F)(F)F |  |  |  |  |  | <1 µM
COc1ccc2ccccc2c1C1Nc2cccc(O)c2NC2=C1C(=O)CC(C)(C)C2 | 1b |  |  | luciferase / reporter gene / replicon |  | >32 µM
CCOCCN(C(=O)C1CCC(C)CC1)c1cc(-c2ccc(-c3cc4ncccn4n3)cc2)sc1C(=O)O | 1a |  |  | replicon / ELISA |  | 0.005–0.0099 µM
CCCCCOc1ccc(N(C(N)=O)c2nc(-c3ccc(F)cc3)cs2)cc1C(F)(F)F |  |  |  |  |  | <1 µM
O=C(NCNC(=O)c1ccccc1)c1ccccc1 |  | Huh 7 replicon cells |  | GFP |  | >50 µM
CC1CCC(C(=O)N(c2cc(-c3ccc(-c4cc5ncccn5n4)cc3)sc2C(=O)O)C2CCC(O)CC2)CC1 | 1b |  |  | replicon / ELISA |  | 0.01–0.049 µM
O=C(N[C@@H](C(=O)N1CCC[C@H]1c1ncc(-c2ccc(-c3ccc(-c4cnc([C@@H]5CCCN5C(=O)[C@H](NC(=O)C5CC5)c5ccccc5)s4)cc3)cc2)s1)c1ccccc1)C1CC1 | genotype 1b | Huh7.5 | Y93N+V153M+M202L+M265V | luciferase / reporter gene |  | 0.0273 µM
COC(=O)N[C@@H](C(=O)N[C@@H](C)c1ncc(-c2ccc(-c3ccc(-c4cnc([C@H]5CCCN5C(=O)[C@H](NC(=O)OC)c5ccccc5)[nH]4)nn3)cc2)[nH]1)c1ccccc1 | 1b |  |  |  |  | 0.001–0.099 µM
CC1CCC(C(=O)N(CC2CCOCC2)c2cc(-c3ccc(-c4cn5ccsc5n4)cc3)sc2C(=O)O)CC1 | 1a |  |  | replicon / ELISA |  | 0.001–0.0049 µM
CC(=O)N1c2cccc(O)c2NC2=C(C(=O)CC(C)(C)C2)C1c1ccc(Cl)c(Cl)c1 | 1b |  |  | luciferase / reporter gene / replicon |  | 4.9 µM
S=C(Nc1cccc(OCCCCCOc2ccc(-c3ccccc3)cc2)c1)N1CCOCC1 |  | Ava5-EG(delta4AB)SEAP |  | reporter gene / fluorescence |  | 0.001–1 µM
COCCN(C(=O)C1CCC(C)CC1)c1cc(-c2ccc(-c3cn4ccsc4n3)cc2)sc1C(=O)O | 1b |  |  | replicon / ELISA |  | 0.01–0.049 µM
Brc1ccc(Cn2ccc3nc(-c4ccccc4)nc-3c2)cc1 | genotype 1b | Huh 5-2 |  | cytopathic effect |  | >50 µM
NC(=S)Nc1cccc(OCCCCCOc2ccc(-c3ccsc3)cc2)c1 |  | Ava5-EG(delta4AB)SEAP |  | reporter gene / fluorescence |  | 0.001–1 µM
CCCCCCCCOc1ccc(N(C(=O)COC(C)=O)c2nc(-c3cccnc3)cs2)cc1C(F)(F)F |  |  |  |  |  | <1 µM
OCc1ccn2cc(-c3cn(Cc4cc(Cl)c(Cl)c(Cl)c4)nn3)nc2c1 | GT1b | Huh7 |  | PCR | 50% human serum | >40 µM
COC(=O)N[C@@H](C(=O)N1CCC[C@H]1c1ncc(-c2ccc(-c3ccc(-c4cnc([C@@H]5CCCN5C(=O)Cc5cccnc5)[nH]4)cc3C)cc2)[nH]1)c1ccccc1 | 1b |  |  |  |  | 0.00001–0.000999 µM
Nc1nc2cnc(N3CCC(Oc4cc(F)ccc4Br)CC3)nc2s1 | GT1b | Huh7 |  | PCR |  | 0.0083 µM
CCCCn1c(=O)c2ccccc2c2cc(C(O)(C(F)(F)F)C(F)(F)F)c3c(c21)OCO3 | 2a | Huh7.5.1 |  | PCR |  | 14 µM
CC1(C)CC(=O)C2=C(C1)Nc1c(O)cccc1N(C(=O)c1csc(Nc3ccccc3)n1)C2c1ccc(OCc2ccccc2)cc1F | 1b |  |  | luciferase / reporter gene / replicon |  | 0.45 µM
CC1(C)CC[C@@]2(C(=O)NCc3cn(Cc4ccc(Cn5cc(CNC(=O)[C@]67CCC(C)(C)CC6C6=CCC8[C@@]9(C)CC[C@H](O)C(C)(C)C9CC[C@@]8(C)[C@]6(C)C[C@H]7O)nn5)cc4)nn3)C(C1)C1=CCC3[C@@]4(C)CC[C@H](O)C(C)(C)C4CC[C@@]3(C)[C@]1(C)C[C@H]2O |  | Huh7 |  | luciferase / entry |  | 0.003 µM
CC1CCC(C(=O)N(CC2CCOCC2)c2cc(-c3ccc(-c4cc5ncccc5o4)cc3)sc2C(=O)O)CC1 | 1b |  |  | replicon / ELISA |  | 0.001–0.0049 µM
CC1(C)CC(=O)C2=C(C1)Nc1c(O)cccc1N(C(=O)CCc1ccccc1)C2c1ccc(Cl)cc1Cl | 1b |  |  | luciferase / reporter gene / replicon |  | 2.23 µM
OCc1nnc(-c2ccc(N3CCC(Oc4cc(F)ccc4Br)CC3)nn2)o1 | GT1b | Huh7 |  | PCR |  | 0.00032 µM
Cc1cc(-c2cnc([C@@H]3CCCN3C(=O)[C@@H](c3ccccc3)N(C)C)[nH]2)ccc1-c1ccc(-c2cnc([C@@H]3CCCN3C(=O)[C@@H](c3ccccc3)N(C)C)[nH]2)cc1C | 1b |  |  |  |  | 0.00001–0.000999 µM
CC1CCC(C(=O)N(CC2CCOCC2)c2cc(-c3ccc(-c4cc5ncccn5n4)cc3)sc2C(=O)O)CC1 | 1a |  |  | replicon / ELISA |  | 0.001–0.0049 µM
CCCCCCCCOc1ccc(N(CC(N)=O)c2nc(-c3ccc(OCC(N)=O)cc3)cs2)cc1 |  |  |  |  |  | >10 µM
CC1(C)CC(=O)C2=C(C1)Nc1c(O)cccc1N(C(=O)c1ncc3ccccc3n1)C2c1ccc(OCc2ccccc2)cc1F | 1b |  |  | luciferase / reporter gene / replicon |  | 1 µM
CN(C)[C@@H](C(=O)N1CCC[C@@H]1c1ncc(-c2ccc(-c3ncc(-c4cnc([C@H]5CCCN5C(=O)[C@@H](c5ccccc5)N(C)C)[nH]4)cn3)cc2)[nH]1)c1ccccc1 | 1b |  |  |  |  | 0.001–0.099 µM
CC(C)(C)OC(=O)N1CCN([C@@H](c2ccccc2)C(N)c2ccccc2)CC1 |  |  |  | absorbance |  | 2.21 µM
S=C(NCc1ccccc1)Nc1ccc2c(c1)Cc1cc(Br)ccc1-2 |  | Ava5-EG(delta4AB)SEAP |  | reporter gene / fluorescence |  | 0.001–1 µM
COCCN(C(=O)C1CCC(C(F)(F)F)CC1)c1cc(-c2ccc(-c3cc4ncccn4n3)cc2)sc1C(=O)O | 1b |  |  | replicon / ELISA |  | 0.05–0.099 µM
COC(=O)N[C@@H](C(=O)N[C@@H](C)c1ncc(-c2cnc(-c3ccc(-c4cnc([C@H]5CCCN5C(=O)[C@H](NC(=O)OC)c5ccccc5)[nH]4)cc3)nc2)[nH]1)c1ccccc1 | 1b |  |  |  |  | 0.00001–0.000999 µM
CC1(C)CC(=O)C2=C(C1)Nc1c(O)cccc1N(C(=O)CC(=O)NS(=O)(=O)C1CC1)C2c1ccc(OCc2ccccc2)cc1Cl | 1b |  |  | luciferase / reporter gene / replicon |  | 40.42 µM
CCCCCOc1ccc(N(C(N)=O)c2nc(-c3ccncc3)cs2)cc1F |  |  |  |  |  | >10 µM
COCCN(C(=O)C1CCC(C)CC1)c1cc(-c2ccc(-c3cn4ccccc4n3)cc2)sc1C(=O)O | 1b |  |  | replicon / ELISA |  | 0.01–0.049 µM

Again, the opening 3 rows:

Cc1cc(Cl)c(OCCCCCOc2cccc(NC(N)=S)c2)c(Cl)c1 ; cell line: Ava5-EG(delta4AB)SEAP ; read by: reporter gene / fluorescence ; result: 0.001–1 µM
CC(=O)N1c2cccc(O)c2NC2=C(C(=O)CC(C)(C)C2)C1c1ccc(-c2ccccc2)cc1 ; strain: 1b ; read by: luciferase / reporter gene / replicon ; result: 19.31 µM
CCCCCOc1ccc(N(C(N)=O)c2nc(-c3cccnc3)cs2)cc1F ; result: <1 µM

Conditions beyond the fields shown may differ between rows. Two numbers with a dash give a range or band. Blank or dashed fields: not listed here.